The record followed here is publication PMC8787478.

Series [1] has as its target T1, Vfr (Pseudomonas aeruginosa) (UniProt P55222).
T1 sequence: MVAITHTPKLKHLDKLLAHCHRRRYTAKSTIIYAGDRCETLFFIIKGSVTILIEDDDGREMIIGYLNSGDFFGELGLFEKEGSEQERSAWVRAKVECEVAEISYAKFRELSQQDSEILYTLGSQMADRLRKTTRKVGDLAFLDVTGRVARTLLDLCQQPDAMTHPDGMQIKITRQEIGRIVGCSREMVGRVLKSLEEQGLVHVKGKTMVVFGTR
Nature of the series: DNase I footprinting. The note with it: cAMP-Vfr 1-114 nM, hypersensitive at -127 and -117; 5' amino modifier C6 on one primer; footprinting: 10 mM Tris pH 8.0, 50 mM KCl, 2 mM MgCl2, 0.5 mM DTT, 10% glycerol, 100 ug/mL BSA, 5 ug/mL poly(dI-dC), 25 C; recombinant protein; label: 32P, top strand single end label; probe letters rebuilt from the primers and the genome.

Series [2] concerns the target T1, Vfr (Pseudomonas aeruginosa). As to the kind of experiment: EMSA. To be noted: cAMP-saturated, 2.25-68 nM, no apparent change vs WT; EMSA: 10 mM Tris pH 7.5, 50 mM KCl, 1 mM EDTA, 1 mM DTT, 5% glycerol, 100 ug/mL BSA, 5 ug/mL poly(dI-dC), 0.25 nM probe, 25 C; recombinant protein; label: 32P end label; probe letters rebuilt from the primers and the genome.

Construct, isoform or probe ends are uncertain for at least one entry.

“GCATACCGTTGCCTGGCAACTGATCCTCAACCGGCAGGGCCGGCTCCGTACCGCGAGCGCCAGGGAGAACCGGGAGAAACGTGAGCTATGCAGCACTTCCGGATGATCATGGACCAGTTGTCCTGCCCCTCGGGCCGACCGTCAACGACCGCAAGACGCTCCCAGGCCCGTTTGGCATGCTTTCCAGGCGTAGAC (double strand) [PfimU footprinting probe]”: the binding result in series [1] was “binds”.
“GCATACCGTTGCCTGGCAACTGATCCTCAACCGGCAGGGCCGGCTCCGTACCGCGAGCGCCAGGGAGAACCGGGAGAAACGTGAGATATGCATCACTTCCGGATGATCATGGACCAGTTGTCCTGCCCCTCGGGCCGACCGTCAACGACCGCAAGACGCTCCCAGGCCCGTTTGGCATGCTTTCCAGGCGTAGAC (double strand) [PfimU M1]”: the binding result in series [2] is reported as “binds”.
